Earlier results on three molecules are cited in patent publication US11082386B2, “2′-fluoro-6′-methylene carbocyclic nucleosides and methods of treating viral infections” (UNIVERSITY OF GEORGIA RESEARCH FOUNDATION, INC., priority 2009, dated 2021).

The structures appear in SMILES notation. Like-named read-outs stand apart in the source and are kept apart here.

This series relates to HBV. The note with it: cited from earlier work; for probability of resistance: patients with pre-existing lamivudine-resistant mutations.

As to `Cc1cn([C@@H]2C[C@@H](O)[C@H](CO)O2)c(=O)[nH]c1=O` [Telbivudine, telbivudine], the rate of resistance result is “around 5%” (1 year therapy, HBeAg-postive patients) and 22% (2 years).
Consider `Nc1ncnc2c1ncn2CCOCP(=O)(O)O` [adefovir, reference compound], for which the rate of resistance result is given as “about 3%” (2 years) and 29% (5 years treatment).
In the case of `C=C1[C@H](CO)[C@@H](O)C[C@@H]1n1cnc2c(=O)[nH]c(N)nc21` [entecavir], the probability of resistance is, setting by setting: (1 year) 1%; (5 years) 51%.
